Measured values taken from publication PMC2720045 (Proteins, 2009).

Legend:
[1] = system: PRD25N (HIV-1 protease D25N mutant); assay: DSC thermal denaturation of PRD25N with inhibitors; type: binding
[2] = system: PRD29N (HIV-1 protease D29N mutant); conditions: DSC

acetyl pepstatin [Ac-PEP]
ΔTm ratio ΔTm(PR)/ΔTm(PRD25N) [1]: 16.3 | ΔTm ratio ΔTm(PR)/ΔTm(PRD29N) [2]: ≥ 44
